Activity calls are given as the source filed them. The calls are words filed in the database; no cut-off is given here.

The species entered for one assay is Homo sapiens. In words: Modulation of Frizzled in human Caco2 cells assessed as protection against 0.25 to 1 ng/ml TcdB-induced cell rounding at 50 uM incubated for 24 hrs by phalloidin conjugated AlexaFluor488 dye based fluorescence microscopy relative to control.
For the next assay, the target named is Frizzled-7 (Homo sapiens, UniProt O75084). In words: Binding affinity to recombinant human Frizzled-7 (Gln33 to Leu185 residues)/human IgG1 chimeric protein expressed in CHO cells assessed as association rate constant by SPR assay. The class given is cell-based. A general note: In SPR one partner is held on a chip, and binding of the other changes the refractive index at the surface.

Turning to `CSCC[C@H](NC(=O)[C@@H](NC(=O)[C@H](Cc1cnc[nH]1)NC(=O)[C@H](CSSC[C@H](NC(=O)[C@H](Cc1c[nH]c2ccccc12)NC(=O)[C@H](Cc1ccccc1)NC(=O)[C@H](CCC(=O)O)NC(=O)[C@H](C)NC(=O)[C@H](CC(=O)O)NC(=O)[C@H](CC(=O)O)NC(=O)[C@H](CO)NC(=O)[C@@H]1CCCN1C(=O)[C@H](CC(C)C)NC(C)=O)C(=O)N[C@@H](Cc1cnc[nH]1)C(=O)N[C@H](C(=O)N[C@@H](CCSC)C(=O)N[C@@H](Cc1ccc(O)cc1)C(N)=O)C(C)C)NC(=O)[C@H](Cc1c[nH]c2ccccc12)NC(=O)[C@H](Cc1ccccc1)NC(=O)[C@H](CCC(=O)O)NC(=O)[C@H](C)NC(=O)[C@H](CC(=O)O)NC(=O)[C@H](CC(=O)O)NC(=O)[C@H](CO)NC(=O)[C@@H]1CCCN1C(=O)[C@H](CC(C)C)NC(C)=O)C(C)C)C(=O)N[C@@H](Cc1ccc(O)cc1)C(N)=O`, the outcome in the assay listed under Homo sapiens was inactive. Turning to `CSCC[C@H](NC(=O)[C@@H](NC(=O)[C@H](Cc1cnc[nH]1)NC(=O)[C@H](C[Se][Se]C[C@H](NC(=O)[C@H](Cc1c[nH]c2ccccc12)NC(=O)[C@H](Cc1ccccc1)NC(=O)[C@H](CCC(=O)O)NC(=O)[C@H](CC(C)C)NC(=O)[C@H](CC(=O)O)NC(=O)[C@H](CC(=O)O)NC(=O)[C@H](CO)NC(C)=O)C(=O)N[C@@H](Cc1cnc[nH]1)C(=O)N[C@H](C(=O)N[C@@H](CCSC)C(=O)N[C@@H](Cc1ccc(O)cc1)C(N)=O)C(C)C)NC(=O)[C@H](Cc1c[nH]c2ccccc12)NC(=O)[C@H](Cc1ccccc1)NC(=O)[C@H](CCC(=O)O)NC(=O)[C@H](CC(C)C)NC(=O)[C@H](CC(=O)O)NC(=O)[C@H](CC(=O)O)NC(=O)[C@H](CO)NC(C)=O)C(C)C)C(=O)N[C@@H](Cc1ccc(O)cc1)C(N)=O`, at Frizzled-7, the Ka amounted to 52.7 ×10⁵ /M/s.

These data come from ChEMBL document CHEMBL4373723 (J Med Chem, 2019).
